From paper PMC12021911 (Frontiers in Microbiology, 2025)

Experiment: general procedure: Fmoc solid-phase peptide synthesis; Fmoc-Rink amide AM resin (100–200 mesh, loading capacity 0.62 mmol/g); DIC/HOBT (8 eq.) in DMF
Conditions: whole synthesis

Substance: LLGDFFRKSKEKIGKEFKRIVQRIKDFLRNLVPRTES-OH
- purity (crude or final not stated): 95.30%
